Paper PMC3260234

Assays:
Assay in all cases: EMSA
Conditions in all cases: 20 mM Tris-HCl pH 7.5, 100 mM NaCl, 2 mM EDTA, room temperature 20 min, recombinant protein, protein details: 6xHis (pET28a), probe letters rebuilt from the primers and the genome
[1] = target: T1, OxyS-C113A (Mycobacterium tuberculosis) (UniProt L7N677)
T1 sequence (looked up, limits assumed): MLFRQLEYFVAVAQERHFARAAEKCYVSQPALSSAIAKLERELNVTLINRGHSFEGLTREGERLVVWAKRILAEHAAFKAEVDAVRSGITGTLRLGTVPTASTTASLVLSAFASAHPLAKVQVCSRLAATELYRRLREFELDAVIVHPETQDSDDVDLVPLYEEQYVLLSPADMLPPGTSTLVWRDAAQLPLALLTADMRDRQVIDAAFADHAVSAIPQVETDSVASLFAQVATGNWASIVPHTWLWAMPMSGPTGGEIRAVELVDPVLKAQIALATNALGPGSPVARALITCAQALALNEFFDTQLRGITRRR

[2] = target: T2, OxyS-C124A (Mycobacterium tuberculosis) (UniProt L7N677)
T2 sequence (looked up, limits assumed): T1 sequence (looked up, limits assumed) with A113C, C124A

[3] = target: T3, OxyS-C25A (Mycobacterium tuberculosis) (UniProt L7N677)
T3 sequence (looked up, limits assumed): T1 sequence (looked up, limits assumed) with C25A, A113C

[4] = target: T4, OxyS-C293A (Mycobacterium tuberculosis) (UniProt L7N677)
T4 sequence (looked up, limits assumed): T1 sequence (looked up, limits assumed) with A113C, C293A

Measured: binding result

AGCATTCCTTCCAGGAGTTGGTGTTATCGGGCTGTGATCACGGATGTGATCGCGAAGTGTCGGATATCGAACAATCAGGACATAGACCCCAGTAGATGACCTCCGCCTCGTCCAACAGGAAGCCGTTATGGTCCGAGGCCGTCAGACAGGGTGCCTCGCCAACAGCACAGTCGACATCGGCGATAACCCCGCAAGACCGGCAGACGATGTGATGGTGGTTGTCGCCGACCCTGGACTCGTAGCGCGCGACGGAGCCCGAGGGTTGGATCTTTCGCACCAAGCCCGCGGCGGTCAGGGCATGCAGCACGTCGTACACGGCTTGCCGGGATACGTCGGGCAGCGCAAAACGC (double strand) [katGp]
binds: [1] | [2] | [3] | [3]; H2O2 (not affected), 400 nM protein | [4]

Substitutions are numbered along the chain they refer to. The exact form of at least one protein or probe is not confirmed. Tags and fusion partners may be left off the protein sequences shown.
